A mixed list of measured activities; the numbers were collected in NIAID ChemDB.

All rows: growth or infection tests; agent: Mycobacterium tuberculosis

Fold resistance: result on the changed form divided by that on wild type.

smiles	changes	measure	read by	dose	strain	result
O=C1C[C@@H](c2ccc(O)cc2)Oc2c1c(O)cc(O[C@@H]1O[C@H](CO)[C@@H](O)[C@H](O)[C@H]1O)c2[C@H]1C(=O)c2c(O)cc(O)cc2O[C@@H]1c1ccc(O)cc1		inhibition		12.5 µg/mL		0%
CCCCCCCCc1ccc2c(c1)C(=O)c1nc3ccncc3c(=O)n1-2		MIC			TN1618RFLF:P (MDR)	<0.015 µg/mL
CC(C)=CCc1c2c(c3oc4c(cc5c6c(c(=O)cc(O)c64)OC5(C)C)c(O)c3c1O)C=CC(C)(C)O2		MIC				6.25 µg/mL
CCSc1nc(C(N)=S)cnc1CC(C)C		inhibition		12.5 µg/mL	H37Rv	<90%
C[C@H]1COc2c(N3CCN(C)CC3)c(F)cc3c(=O)c(C(=O)O)cn1c23		Mean MIC			44 isolates (resistant)	0.741 µg/mL
CC(Cc1ccco1)C(=O)NC(N)=O		inhibition	BACTEC	12.5 µg/mL	H37Rv	0%
c1cc2c(s1)CCOC21CCN(Cc2ccc3c(c2)OCCO3)CC1	MmpL3: Ala249Pro	fold resistance	fluorescence		H37Rv	1.1
CN(CNC(=O)c1cnccn1)Cc1ccccc1		MIC			ATCC 27294	100 µg/mL
NCCCc1ccc2c(c1)oc1ccccc12		inhibition	BACTEC	12.5 µg/mL	H37Rv	79%
Cc1ccc(C(=S)Nc2ccc(Cl)c(Cl)c2)cc1		MIC			H37Rv	15 µM
NNC(=O)c1ccncc1		MIC			PMH29:kasB	0.025 µg/mL
CCCCc1ncc(C(N)=S)nc1SCCC		MIC			H37Rv	>12.5 µg/mL
O=C1C(c2ccccn2)=[N+]([O-])c2ccccc21		MIC	MTT		H37Rv	50 µM
O=C1c2ccccc2OC2CCON12		MIC bound	resazurin		H37Rv	>6.25 µg/mL
O=C(NCN1CCOCC1)c1cnccn1		MIC			MS6210	100 µg/mL
CCCCCOCC(O)CNCCNCC(O)COCCCCC		MIC bound			H37Rv	>6.25 µg/mL
N/C(COc1ccc(Cl)cc1)=N/NC(=O)c1ccncc1		MIC50			16 isolates	3.12 µg/mL
CCCCCc1cc(OC)c2ccccc2n1		MIC			MT8	6.25 µg/mL
O=C(N/N=C/c1ccccc1Cl)C(O)C(O)C(O)C(O)CO		MIC bound	BACTEC		H37Rv	>12.5 µg/mL
O=C1CC(c2ccccc2Br)Oc2ccccc21		inhibition		12.5 µg/mL		23%
O=C1C(c2ccc([N+](=O)[O-])cc2)=[N+]([O-])c2ccccc21		MIC	MTT		H37Rv	50 µM
COc1cc(/C=N/NC(=O)c2ccc(N)cc2)ccc1O		EC50			H37Rv	>12.5 µg/mL
N/C(COc1ccc([N+](=O)[O-])cc1)=N/NC(=O)c1ccncc1		MIC			ATCC 35822 (isoniazid-resistant)	50 µg/mL
COc1ccc(CCC2CCc3ccccc3N2C)cc1OC		MIC			MT2	>100 µg/mL
COc1ccc(C2CC(=O)c3cc(C(=O)O)ccc3O2)cc1		inhibition		12.5 µg/mL	H37Rv	0%
O=C1c2ccccc2-n2c1nc1ccc(OP(=O)(O)O)cc1c2=O		MIC			H37Rv	>8 µg/mL
CCCCc1ncc(C(N)=O)nc1SCC		inhibition		12.5 µg/mL	H37Rv	<90%
COc1ccc(NC(=S)c2ccc(Cl)cc2)cc1		MIC			H37Rv	61.9 µM
Cc1ccc2[nH]c3nc4ccccc4nc3c2c1		MIC bound	resazurin		H37Rv	>6.25 µg/mL
CCN1C(=O)C(C)S/C1=N/N=C1\C(=O)Nc2ccc(Br)cc21		MIC			H37Rv	>12.5 µg/mL
CCCSc1nc(C(N)=S)cnc1CC(C)C		inhibition		12.5 µg/mL	H37Rv	64%
NC[C@H]1O[C@H](O[C@H]2[C@H](O)[C@@H](O[C@H]3O[C@H](CO)[C@@H](O)[C@H](N)[C@H]3O)[C@H](N)C[C@@H]2N)[C@H](O)[C@@H](O)[C@@H]1O		MIC			TN3218 (W3)	>256 µg/mL
O=C1C(=O)c2ccccc2C(O)=C1C(C1=C(O)c2ccccc2C(=O)C1=O)c1ccccc1		MIC bound	BACTEC		H37Rv	>12.5 µg/mL
O=C(/C=C/c1ccncc1)c1ccco1		EC50				>12.5 µg/mL
CN1CCN(CNC(=O)c2cnccn2)CC1		MIC			PZA-resistant	>100 µg/mL
CSc1nc(C(N)=S)cnc1CC(C)C		inhibition		12.5 µg/mL	H37Rv	<90%
O=C1OC(=O)c2nc3ccccc3nc21		inhibition	BACTEC	12.5 µg/mL	H37Rv	2%
CCCCc1ncc(C(N)=O)nc1Sc1ccccc1		inhibition		12.5 µg/mL	H37Rv	61%
O=C(NCN1CCCC1)c1cnccn1		MIC			MS6210	100 µg/mL
S=C(Nc1ccc(C2CCCCC2)cc1)c1ccc(Cl)cc1		MIC			H37Rv	61.9 µM
O=C1c2cc(/C=C/CCCCO)ccc2-n2c1nc1ccncc1c2=O		MIC			H37Rv	0.5 µg/mL
O=C1c2ccccc2C(=O)c2sccc21		inhibition	resazurin	6.25 µg/mL	H37Rv	82%
COc1ccc(C(=O)/C=C/c2cccc(I)c2)c(O)c1		EC50				>12.5 µg/mL
COC(=O)C1=C(c2cc(OC)c(OC)c(OC)c2)OC(c2ccc(OC)c(OC)c2)C1		inhibition	BACTEC	12.5 µg/mL	H37Rv	0%
CCCCSc1nc(C(N)=O)cnc1CCC		MIC			H37Rv	>12.5 µg/mL
CCCCCC/C=C/c1ccc2nc3n(c(=O)c2c1)-c1ccc(Cl)cc1C3=O		MIC			H37Rv	1 µg/mL
COc1ncc(Br)cc1C(=O)NCCc1ccc(S(=O)(=O)[N-]C(=O)NC2CCCCC2)cc1.[Na+]		MIC	BACTEC		H37Rv	≥12.5 µg/mL
CC(=O)c1c2c(cc3c(=O)c4c(O)cc5c(c4oc13)C=CC(C)(C)O5)C(C)(C)OC2=O		MIC				100 µg/mL
Cc1nc(C)c([N+](=O)[O-])s1		inhibition	resazurin	6.25 µg/mL	H37Rv	9%
COc1ccc(NC(=S)c2ccc(C)cc2)cc1		MIC			H37Rv	250 µM
CCOC(=O)c1nnc(-c2ccccc2)c(-c2ccccc2)n1		inhibition	BACTEC	12.5 µg/mL	H37Rv	63%
COc1ccc(/C=C/C(=O)c2cc(Cl)ccc2O)cc1		EC50			H37Rv	>12.5 µg/mL
C=CCN1C(=O)C(C)S/C1=N\N=C1/C(=O)Nc2ccccc21		MIC			H37Rv	>12.5 µg/mL
Cc1nc(SCC(=O)Nc2ccccc2)c2sc(=S)n(-c3ccccc3)c2n1		MIC bound	BACTEC		H37Rv	>12.5 µg/mL
COc1ccc(O)c(C(=O)/C=C/c2ccco2)c1		EC50				>12.5 µg/mL
Nc1ccc(C(=O)N/N=C/c2ccc(F)cc2)cc1		EC50			H37Rv	>12.5 µg/mL
Cc1ccc(O)c(C(=S)NCc2ccc(C(C)(C)C)cc2)c1		MIC			My 331/88	0.5 µg/mL
CO/N=C1\CN(c2nc3c(cc2F)c(=O)c(C(=O)O)cn3C2CC2)CC1CN		Mean MIC			44 isolates (resistant)	6.417 µg/mL
N/C(COc1cccc(Cl)c1)=N/NC(=O)c1ccncc1		MIC			ATCC 35828 (pyrazinamide-resistant)	3.12 µg/mL
CCCSc1nc(C(N)=O)cnc1C(C)(C)C		MIC			H37Rv	>12.5 µg/mL
O=c1cc(-c2ccc(O)cc2-c2c(O)cc3oc(-c4ccc(O)cc4)cc(=O)c3c2O)oc2cc(O)cc(O)c12		inhibition		12.5 µg/mL		1%
C/C=C1\CN2CCC1CC2C(O)c1ccnc2ccc(OCCO)cc12		MIC bound	resazurin		H37Rv	>6.25 µg/mL
O=C1c2cc(I)ccc2-n2c1nc1cc(Cl)cc(Cl)c1c2=O		MIC			H37Rv	0.13 µg/mL
COc1ccccc1-n1sc(=NOC(=O)c2sc3ccccc3c2Cl)sc1=S		MIC bound	resazurin		H37Rv	>6.25 µg/mL
Cc1ccc(O)c(C(=S)NCc2ccc(Cl)cc2)c1		MIC			My 331/88	0.5 µg/mL
CCCCN1C(=O)C(C)S/C1=N/N=C1\C(=O)Nc2ccc(Br)cc21		MIC			H37Rv	>12.5 µg/mL
O=c1[nH]c2ccc([N+](=O)[O-])cc2c2nc3ccccc3n12		inhibition	BACTEC	12.5 µg/mL	H37Rv	76%
COC(=O)C1(O)CC(=O)c2c1ccc1c(=O)c3c(O)cc4c(c3oc21)C=CC(C)(C)O4		MIC				12.5 µg/mL
COc1ccc2c(c1)C(=O)C(c1ccc(Cl)c(C(F)(F)F)c1)=[N+]2[O-]		EC50	MTT		H37Rv	6.6 µM
CC[C@@H](CO)NCCN[C@@H](CC)CO		MIC	broth dilution / resazurin		MDR22	1 µg/mL
CCN(CC)CNC(=O)c1cnc(N(CC)CC)cn1		MIC			ATCC 35828	16 µg/mL
COc1ccc(NC(=S)c2ccccc2)cc1		MIC			H37Rv	125 µM
NC(=O)c1cnc(Cl)cn1		MIC			ATCC 35828	8 µg/mL
O=C1c2ccc(N3CCNCC3)cc2-n2c1nc1ccccc1c2=O		MIC			H37Rv	4 µg/mL
Nc1ccc(C(=O)N/N=C/c2ccccc2F)cc1		EC50			H37Rv	>12.5 µg/mL
Cc1ccc(NC(=S)c2ccc(Cl)cc2)cc1		MIC			H37Rv	61.9 µM
S=C(S)N1CCNCC1		inhibition	BACTEC	12.5 µg/mL	H37Rv	19%
O=C(NCc1ccc(C(F)(F)F)cc1)c1c(O)cc(Br)cc1Br		MIC			My 331/88	62.5 µg/mL
O=C1c2cc(C(F)(F)F)ccc2-n2c1nc1ccccc1c2=O		MIC			H37Rv	0.015 µg/mL
CCn1cc(C(=O)O)c(=O)c2cc(F)c(N3CCNC(C)C3)c(F)c21		MIC90			11 strains (drug-resistant)	1.1 µg/mL
Cc1ccc(NC(=S)c2ccc(C)cc2)cc1		MIC			H37Rv	250 µM
COc1ccc2c(c1)C(=O)C(c1ccc3cc(OC)ccc3c1)=[N+]2[O-]		MIC	MTT		H37Rv	6.25 µM
NC(=O)c1cnccn1		MIC			ATCC 35828	>300 µg/mL
CC1S/C(=N/N=C2\C(=O)Nc3ccc(Br)cc32)N(c2ccccc2)C1=O		MIC			H37Rv	>12.5 µg/mL
S=C(Nc1ccc(Cl)c(Cl)c1)c1ccccc1		MIC			H37Rv	15 µM
CN(C)c1ccc(/C=C/C/C=N/NC(=O)c2ccc(N)cc2)cc1		inhibition		12.5 µg/mL	H37Rv	56%
Nc1c(C(=O)O)nnc2cc(Cl)ccc12		inhibition	BACTEC	12.5 µg/mL	H37Rv	26%
CN(CCOC(=O)CCC(=O)O)c1ccc2c(=O)n3c(nc2c1)C(=O)c1cc(Cl)ccc1-3		MIC			H37Rv	1 µg/mL
O=C(NCN1CCNCC1)c1cnccn1		MIC			ATCC 35822	33 µg/mL
COc1ccc2cc(C3=[N+]([O-])c4ccccc4C3=O)ccc2c1		MIC	MTT		H37Rv	3.2 µM
O=C1c2cc(OC(F)(F)F)ccc2-n2c1nc1cc(F)ccc1c2=O		MIC			H37Rv	0.03 µg/mL
CCCc1ncc(C(N)=S)nc1SCC		inhibition		12.5 µg/mL	H37Rv	<90%
Cc1ccc(O)c(C(=S)NCc2ccccc2)c1		MIC			My 331/88	0.5 µg/mL
S=C(Nc1ccccc1)c1cccc(Br)c1		MIC			H37Rv	61.9 µM
CCCN(CCC)C(=S)Sc1nc(C)nc(N2CCN(c3nc(C)nc(SC(=S)N(CCC)CCC)c3[N+](=O)[O-])CC2)c1[N+](=O)[O-]		MIC bound	resazurin		H37Rv	>6.25 µg/mL
O=C1C(c2ccc(Oc3ccccc3)cc2)=[N+]([O-])c2cc3c(cc21)OCO3		EC50	MTT		H37Rv	13.4 µM

Again, the opening 13 rows:

{"smiles": "O=C1C[C@@H](c2ccc(O)cc2)Oc2c1c(O)cc(O[C@@H]1O[C@H](CO)[C@@H](O)[C@H](O)[C@H]1O)c2[C@H]1C(=O)c2c(O)cc(O)cc2O[C@@H]1c1ccc(O)cc1", "measure": "inhibition", "dose": "12.5 µg/mL", "result": "0%"}
{"smiles": "CCCCCCCCc1ccc2c(c1)C(=O)c1nc3ccncc3c(=O)n1-2", "measure": "MIC", "strain": "TN1618RFLF:P (MDR)", "result": "<0.015 µg/mL"}
{"smiles": "CC(C)=CCc1c2c(c3oc4c(cc5c6c(c(=O)cc(O)c64)OC5(C)C)c(O)c3c1O)C=CC(C)(C)O2", "measure": "MIC", "result": "6.25 µg/mL"}
{"smiles": "CCSc1nc(C(N)=S)cnc1CC(C)C", "measure": "inhibition", "dose": "12.5 µg/mL", "strain": "H37Rv", "result": "<90%"}
{"smiles": "C[C@H]1COc2c(N3CCN(C)CC3)c(F)cc3c(=O)c(C(=O)O)cn1c23", "measure": "Mean MIC", "strain": "44 isolates (resistant)", "result": "0.741 µg/mL"}
{"smiles": "CC(Cc1ccco1)C(=O)NC(N)=O", "measure": "inhibition", "read by": "BACTEC", "dose": "12.5 µg/mL", "strain": "H37Rv", "result": "0%"}
{"smiles": "c1cc2c(s1)CCOC21CCN(Cc2ccc3c(c2)OCCO3)CC1", "changes": "MmpL3: Ala249Pro", "measure": "fold resistance", "read by": "fluorescence", "strain": "H37Rv", "result": "1.1"}
{"smiles": "CN(CNC(=O)c1cnccn1)Cc1ccccc1", "measure": "MIC", "strain": "ATCC 27294", "result": "100 µg/mL"}
{"smiles": "NCCCc1ccc2c(c1)oc1ccccc12", "measure": "inhibition", "read by": "BACTEC", "dose": "12.5 µg/mL", "strain": "H37Rv", "result": "79%"}
{"smiles": "Cc1ccc(C(=S)Nc2ccc(Cl)c(Cl)c2)cc1", "measure": "MIC", "strain": "H37Rv", "result": "15 µM"}
{"smiles": "NNC(=O)c1ccncc1", "measure": "MIC", "strain": "PMH29:kasB", "result": "0.025 µg/mL"}
{"smiles": "CCCCc1ncc(C(N)=S)nc1SCCC", "measure": "MIC", "strain": "H37Rv", "result": ">12.5 µg/mL"}
{"smiles": "O=C1C(c2ccccn2)=[N+]([O-])c2ccccc21", "measure": "MIC", "read by": "MTT", "strain": "H37Rv", "result": "50 µM"}

MIC50, MIC90 and the like: level of inhibition, or share of isolates inhibited. Inhibition is in % at the dose shown (toxicity tests: loss of growth or viability). ECn: concentration that inhibits the pathogen or its effect by n%. MIC bound comes from a single tested concentration. Blank or dashed fields: not listed here. Conditions beyond the fields shown may differ between rows.